A mixed list of measured activities; the numbers were collected in NIAID ChemDB.

Shared fields: tests in culture; species: HIV-1; cells: CEM + CEM-SS; measure: EC50

Rows are shuffled and stem from different studies. Blank or dashed fields: not listed here. ECn is the concentration giving n% inhibition of infection, replication or growth.

compound	strain or isolate	mutations	read by	result
Cc1cn([C@H]2C[C@H](N=[N+]=[N-])[C@@H](CO)O2)c(=O)[nH]c1=O	SK1	-	cytopathic effect / XTT	0.009 µM
Cc1cn([C@H]2C[C@H](N=[N+]=[N-])[C@@H](CO)O2)c(=O)[nH]c1=O	205	-	cytopathic effect / MTT	0.006 µM
CCc1c(C(=O)c2cc(C)cc(C)c2)n(CC2CC=CC2)c(=O)[nH]c1=O	IIIB	-	cytopathic effect / XTT	0.002 µM
CC1=C(C(=O)Nc2ccc(Cl)c(C(=O)OC(C)C)c2)SCCO1	IIIB	-	cytopathic effect / XTT	0.2 µM
Cc1ccnc2c1NC(=O)c1cccnc1N2C1CC1	Nevirapine-resistant (RT Y181C)	RT-Y181C	XTT	>38 µM
Fc1cccc(F)c1C1SCc2nc3ccccc3n21	205	-	cytopathic effect / XTT	0.9 µM
Cc1ccnc2c1NC(=O)c1cccnc1N2C1CC1	IIIB	RT-K103N Y181C	cytopathic effect / XTT	>3.3 µM
CC(C)=CCOc1cc(NC(=S)c2ccsc2C)ccc1Cl	Dihydrocostatolide-resistant (RT-L100I)	RT-L100I	XTT	0.03 µM
CN1N=C(N)c2cn([C@@H]3O[C@H](COP(=O)(O)O)[C@@H](O)[C@H]3O)c3ncnc1c23	G5	-	XTT	0.15 µM
Cc1cn([C@H]2C[C@H](N=[N+]=[N-])[C@@H](CO)O2)c(=O)[nH]c1=O	4XAZT+L100I (RT D67N K70R L100I T215Y K219Q)	RT-D67N K70R L100I T215Y K219Q	cytopathic effect / XTT	0.02 µM
Cc1occc1C(=S)Nc1ccc(Cl)c(/C=N/OC(C)(C)C)c1	Pyridinone-resistant (RT Y181C K103N)	RT-K103N Y181C	cytopathic effect / XTT	>100 µM
CCCc1cc(=O)oc2c3c(c4c(c12)OC(C)(C)C=C4)O[C@@H](C)[C@H](C)[C@@H]3O	E BPTU-resistant (RT Y181C)	RT-Y181C	XTT	<0.08 µM
CCc1c(Sc2ccccn2)n(COCc2ccccc2)c(=O)[nH]c1=O	NL4-3	RT-L100I	cytopathic effect / XTT	0.027 µM
Cc1ccnc2c1NC(=O)c1cccnc1N2C1CC1	NL4-3 (RT M184V)	RT-M184V	cytopathic effect / XTT	0.1 µM
Cc1cn([C@H]2C[C@H](N=[N+]=[N-])[C@@H](CO)O2)c(=O)[nH]c1=O	SK1	-	XTT	0.005 µM
C/C=C/CSc1cc(NC(=S)c2ccsc2C)ccc1Cl	NL4-3 (RT V106I)	RT-V106I	cytopathic effect / XTT	0.7 µM
CCCc1cc(=O)oc2c3c(c4c(c12)OC(C)(C)C=C4)O[C@H](C)[C@@H](C)[C@@H]3O	NL4-3	RT-K103N	XTT	1.7 µM
Fc1cccc(F)c1C1SCc2nc3ccccc3n21	UC82-R (RT-Y181C)	RT-Y181C	cytopathic effect / XTT	>69 µM
CCc1cc(NCc2nc3c(Cl)ccc(Cl)c3o2)c(=O)[nH]c1C	IIIB	-	cytopathic effect / XTT	0.05 µM

2 of the rows above, restated:

compound | strain or isolate | mutations | read by | result
CCCc1cc(=O)oc2c3c(c4c(c12)OC(C)(C)C=C4)O[C@H](C)[C@@H](C)[C@@H]3O | NL4-3 | RT-K103N | XTT | 1.7 µM
Cc1ccnc2c1NC(=O)c1cccnc1N2C1CC1 | NL4-3 (RT M184V) | RT-M184V | cytopathic effect / XTT | 0.1 µM